Results deposited as PubChem BioAssay AID624099 (ICCB-Longwood, 2012).
Assay: 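Host factors E2 relies on to silence an HPV18 LCR reporter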 (primary screen). Cells: human C33A cervical carcinoma cells (HPV-negative) stably expressing BPV1 E2 and an HPV18 LCR luciferase reporter. Reagent: siRNA pool against human genes, 40 nM. Duration: 72 h. Read-out: 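HPV18 LCR reporter light per well, converted to plate-wise z-scores that exclude control wells, and averaged over triplicate plates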. Direction: mean z-score and z-score: higher = stronger reporter signal, weaker E2 silencing. Hit rule: 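Hit if mean z-score reaches 2 and two or more of three replicate z-scores also reach 2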.
Here is a random part of about 21,000 deposited reagents. In the full data, 497 (2.4%) are marked active. 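Higher z means weaker E2 silencing; only reporter increases were scored, and knock-downs that hurt cell survival may mask genuine repressor factors.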 Entries without a mark were called inactive. No sequences are given here.

PPP1R27
- mean z-score: 0.18
- z-score, replicate A: -0.03
- z-score, replicate B: 0.37
- z-score, replicate C: 0.21

OR2AE1
- mean z-score: -0.53
- z-score, replicate A: -0.64
- z-score, replicate B: -0.22
- z-score, replicate C: -0.73

ZNF461
- mean z-score: 0.59
- z-score, replicate A: 0.78
- z-score, replicate B: 0.47
- z-score, replicate C: 0.53

PHYHIPL
- mean z-score: -0.91
- z-score, replicate A: -0.82
- z-score, replicate B: -0.7
- z-score, replicate C: -1.2

SLCO2B1
- mean z-score: 1.15
- z-score, replicate A: 1.1
- z-score, replicate B: 1.1
- z-score, replicate C: 1.24

TTLL5
- mean z-score: 0.59
- z-score, replicate A: 0.69
- z-score, replicate B: 0.6
- z-score, replicate C: 0.48

FCAMR
- mean z-score: -0.3
- z-score, replicate A: -0.22
- z-score, replicate B: -0.02
- z-score, replicate C: -0.67

CNN3
- mean z-score: -0.6
- z-score, replicate A: -0.45
- z-score, replicate B: -0.86
- z-score, replicate C: -0.5

TNFRSF1A
- mean z-score: -0.44
- z-score, replicate A: -0.39
- z-score, replicate B: -0.54
- z-score, replicate C: -0.41

RASA3
- mean z-score: 1.32
- z-score, replicate A: 1.18
- z-score, replicate B: 1.16
- z-score, replicate C: 1.62

DAP
- mean z-score: -0.06
- z-score, replicate A: -0.13
- z-score, replicate B: 0.03
- z-score, replicate C: -0.1

HDHD5
- mean z-score: 2.19 (active)
- z-score, replicate A: 1.88
- z-score, replicate B: 2.3
- z-score, replicate C: 2.41

ATF4
- mean z-score: -0.25
- z-score, replicate A: -0.23
- z-score, replicate B: -0.21
- z-score, replicate C: -0.31

ZNF365
- mean z-score: 0.42
- z-score, replicate A: 0.51
- z-score, replicate B: 0.18
- z-score, replicate C: 0.57

Part of the list above, showing only “z-score, replicate A”:
ZNF461	0.78
PHYHIPL	-0.82
